Experimental findings from patent US9988424 (DUKE UNIVERSITY, dated 2018) are described below.

In test [1] the target is Env of SHIV-1157ipd3N4 (SHIV). The test is described as follows: cell-based or functional assay.
The target in test [2] is Env of SHIV-1157ipEL-p (SHIV). The test is described as follows: cell-based or functional assay.
Test [3] deals with Env of SHIV-SF162P4 (SHIV). The test is described as follows: cell-based or functional assay.
The target in test [4] is T1, J08 A.92RW020V1V2/N156QN160Q (HIV-1).
T1 construct: also called J08 A.92RW020VV1V2/N156QN160Q
The test is described as follows: ELISA. A general note: ELISA stands for enzyme-linked immunosorbent assay.

Test [5] has as its target T2, J08 B.HXB2/BALV1V2N156QN160Q (HIV-1).
T2 chain: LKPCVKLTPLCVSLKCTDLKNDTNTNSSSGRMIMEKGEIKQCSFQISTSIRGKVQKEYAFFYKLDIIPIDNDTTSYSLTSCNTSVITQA
The test is described as follows: ELISA.

Test [6] concerns the target Env of SHIV-1157ipd3N4 (SHIV). The test is described as follows: cell-based or functional assay. This is another data set of the same source.
For test [7], the target named is Env of SHIV-1157ipEL-p (SHIV). The test is described as follows: cell-based or functional assay. This is another data set of the same source.
Test [8] addresses Env of SHIV-SF162P4 (SHIV). The test is described as follows: cell-based or functional assay. The source holds these as a separate data set.
Test [9] addresses T1, J08 A.92RW020V1V2/N156QN160Q.
In test [10] the target is T3, B.62357 140C.
T3 construct: also called B.62357 gp140C
The test is described as follows: ELISA OD405nm, bar chart, antibody concentration not given.

Test [11] deals with T4, B.62357 140C.
T4 construct: also called B.62357 gp140C
The test is described as follows: ELISA, OD405.

The next test has as its target B.63521 gp140C. The test is described as follows: ELISA, OD405.
Another test deals with B.040 gp140C. The test is described as follows: ELISA, OD405.

Several values for one entry are separate records, joined by “and”; a condition that tells them apart may be missing. Identical values can stand only once. A value given as a limit tells only on which side of the number the result lay.

B1: CH58 (antibody, V domains shown)
VH: EVQLVQSGAEVKKPGESLKISCKGSGYRFTSYWIVWVRQMPGKGLEWMGIIYPGDFDTKYSPSFQGQVTISADKSISTAYLQWSSLKASDTAMYYCARLGGRYYHDSSGYYYLDYWGQGTLVTVSS
VL: NFMLTQPHSVSESPGKTVTISCTRSSGSVASDYVQWYQQRPGSAPTTVVYEDNQRPSGVPDRFSGSIDSSSNSASLTISGLKTEDEADYYCQSYDNSSWVFGGGTKLTVL
B1: the “EC50, neutralization of SHIVC.1157ipd3N4 (tier 2)” value with Env of SHIV-1157ipd3N4 [1] was > 50 µg/mL. For the same molecule, the “EC50, neutralization of SHIV C.1157ipEL-p (tier 1A)” value in the test with Env of SHIV-1157ipEL-p [2] stood at 37.6 µg/mL. For the same molecule, the “EC50, neutralization of SHIV B.SF162P4 (tier 2)” value with Env of SHIV-SF162P4 [3] was > 50 µg/mL. Besides, the concentration for a half-maximal effect (EC50) – broadly, the concentration needed to bring the measured effect to its halfway point – in [4] was 3 nM; in [5], > 667 nM. Further, in the test with Env of SHIV-1157ipd3N4 [6], the “EC50, neutralization of SHIV-1157ipd3N4” value is > 50 µg/mL. In addition, the “EC50, neutralization of SHIV-1157ipEL-p” value with Env of SHIV-1157ipEL-p [7] came to 37.6 µg/mL. In addition, the “EC50, neutralization of SHIV-SF162P4” value with Env of SHIV-SF162P4 [8] was > 50 µg/mL. Moreover, in test [9], the Kd (in general, the concentration at which binding is half-saturated) was 413 nM and 450 nM. Also, the binding result with B.62357 140C [10] was “no binding (tested: not given)”; with B.62357 140C [11], “no binding (tested: 10 ug/ml)”; with B.63521 gp140C, “no binding (tested: 10 ug/ml)”; with B.040 gp140C it was “no binding (tested: 10 ug/ml)”.
